{"source": "PubChem BioAssay AID624099 | ICCB-Longwood | 2012", "assay": "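Host factors E2 relies on to silence an HPV18 LCR reporter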 (primary screen)", "system": "human C33A cervical carcinoma cells (HPV-negative) stably expressing BPV1 E2 and an HPV18 LCR luciferase reporter", "reagent": "siRNA pool against human genes, 40 nM", "timing": "72 h", "measurement": "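Per-well luciferase luminescence, z-scored on each plate against the plate mean and SD with control wells left out, then averaged across three replicate plates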", "direction": "mean z-score and z-score: higher = stronger reporter signal, weaker E2 silencing", "hit rule": "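Mean z ≥ 2 together with z ≥ 2 in two or more of the three replicates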", "note": "In all, the deposit lists about 21,000 reagents; this is a random part of them. 497 of all reagents (2.4%) count as active. 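Higher z means weaker E2 silencing; only reporter increases were scored, and knock-downs that hurt cell survival may mask genuine repressor factors.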"}
{"gene": "AQP7P1 (GeneID 375719)", "mean z-score": -0.86, "z-score, replicate A": -1.07, "z-score, replicate B": -0.68, "z-score, replicate C": -0.84, "activity call": "inactive"}
{"gene": "LCN12 (GeneID 286256)", "mean z-score": -0.23, "z-score, replicate A": -0.34, "z-score, replicate B": -0.17, "z-score, replicate C": -0.18, "activity call": "inactive"}
{"gene": "LINC02692 (GeneID 101928638)", "mean z-score": 1.44, "z-score, replicate A": 1.82, "z-score, replicate B": 1.23, "z-score, replicate C": 1.27, "activity call": "inactive"}
{"gene": "OGFOD1 (GeneID 55239)", "mean z-score": 1.53, "z-score, replicate A": 1.18, "z-score, replicate B": 1.74, "z-score, replicate C": 1.68, "activity call": "inactive"}

Single entries from the entries so far:
For “z-score, replicate B”, LCN12 (GeneID 286256) has -0.17
Result for LINC02692 (GeneID 101928638) in “z-score, replicate A”: 1.82

The list goes on:
{"gene": "CRACR2B (GeneID 283229)", "mean z-score": 0.19, "z-score, replicate A": 0.25, "z-score, replicate B": 0.31, "z-score, replicate C": 0, "activity call": "inactive"}
{"gene": "C11orf65 (GeneID 160140)", "mean z-score": -0.48, "z-score, replicate A": -0.91, "z-score, replicate B": -0.26, "z-score, replicate C": -0.25, "activity call": "inactive"}
{"gene": "MAP7D1 (GeneID 55700)", "mean z-score": 0.69, "z-score, replicate A": 0.36, "z-score, replicate B": 0.68, "z-score, replicate C": 1.02, "activity call": "inactive"}
{"gene": "PPP1R3D (GeneID 5509)", "mean z-score": -0.04, "z-score, replicate A": 0.01, "z-score, replicate B": -0.01, "z-score, replicate C": -0.13, "activity call": "inactive"}
{"gene": "RPLP1P7 (GeneID 133609)", "mean z-score": 1.44, "z-score, replicate A": 1.29, "z-score, replicate B": 1.92, "z-score, replicate C": 1.12, "activity call": "inactive"}
{"gene": "CAPN11 (GeneID 11131)", "mean z-score": 0.82, "z-score, replicate A": 0.73, "z-score, replicate B": 0.94, "z-score, replicate C": 0.8, "activity call": "inactive"}
{"gene": "RUBCNL (GeneID 80183)", "mean z-score": 0.78, "z-score, replicate A": 1.03, "z-score, replicate B": 0.64, "z-score, replicate C": 0.66, "activity call": "inactive"}
{"gene": "PPP1R1B (GeneID 84152)", "mean z-score": -1.04, "z-score, replicate A": -1.14, "z-score, replicate B": -1.28, "z-score, replicate C": -0.71, "activity call": "inactive"}
